## Library screen at single concentrations

The values are deposited in ChEMBL (CHEMBL3988442, “University of Dundee, Small-Polar-MMV Screening Library” (2021)).

Values are the deposited “Percent Effect”, in %. The record does not define 0% and 100%; most values in the screen are far below 50% and negative numbers occur (in some assays of this library far below -100). The entries come from a sample that favours strong results. A dash means the value is not listed here; it may have been measured.

Mtb glucose medium: 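Whole-cell growth test on Mycobacterium tuberculosis, read after 3 days in glucose-containing 7H9 medium; the read-out is not stated. Concentration: 500 µM. Higher reads as more growth inhibition (inferred: compounds with an IC50 in retests scored well above the rest). Size under these conditions: about 18,000 compounds, about 1,400 of them at 50% or above in at least one test.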
Mtb cholesterol medium: 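Phenotypic screen: M. tuberculosis growth, cholesterol and DPPC medium, 4 days; the read-out is not stated. Tested at 500 µM. The record gives no direction; compounds that gave an IC50 in retests scored well above the rest, so higher reads as more growth inhibition. Of about 18,000 compounds tested this way, about 900 (5%) reached 50% or more in at least one test.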

Compound | Mtb glucose medium | Mtb cholesterol medium
N#Cc1ccc(CN2CCn3ccnc3C2)cc1 | 14.07 | -
CCCN(CC1CCCO1)C(=O)c1ncc[nH]1 (centres unmarked) | 17.53 | -
Cc1ccc(-c2nc(CSc3nnc(N)[nH]3)no2)cc1 | 66.94 | 76.56
CS(=O)(=O)NCc1ccnc(O)c1 | -1.616 | -
NCCCc1nc2c(s1)CCCC2 | - | 0.6775
N#Cc1cccc2c1NC(=O)C2 | -10.1 | -
CNC(C(N)=O)c1cccc(Br)c1 (centres unmarked) | - | 0.2529
CNCc1cc(C(F)(F)F)nn1C | 9.409 | -
Cc1ccc(C(=O)N(C)C)cc1F | 0.2644 | -
CC(C)c1cc(CN)on1 | 31.67 | 26.46
Cc1noc(C)c1CCC(=O)NCc1ccon1 | - | 7.139
CCOc1ccc(Cl)cc1CCNS(=O)(=O)N(C)C | 90.41 | 89.58
CC(C)c1cccc(S(=O)(=O)NCCN)c1 | 53.43 | -
Cc1ccoc1C(=O)Nc1cccc(CO)n1 | -12.83 | -
C=C(C)COC(=O)c1ccc(-n2cncn2)cc1C | 53.45 | -
O=C1NCC(C(=O)Nc2nc(C3CC3)cs2)N1 (centres unmarked) | - | 8.445
NCc1ccccc1-n1cccn1 | 64.85 | -
NC(=O)N1CCCC(C(=O)NCc2ccccc2)C1 (centres unmarked) | 7.51 | -
O=C(CCC(F)(F)F)NCCNC1CC1 | - | 35.49
CNCC(=O)NCCc1c(OC)ccc2ccccc12 | 59.74 | -
NC(=O)C1CCCN(Cc2ccc(F)c(Br)c2)C1 (centres unmarked) | 30.53 | -
CCc1nnc(CNC(=O)c2nnc(C(C)C)s2)o1 | - | 14.71
CC1CN(C)CCC1=O (centres unmarked) | - | -28.2
COc1ccc(-c2nc(CS(C)(=O)=O)cs2)cc1 | - | 4.383
Cc1noc(OCC(=O)N(C)C2CC2)n1 | 0.7503 | -
CCN(CC(N)=O)Cc1ccc(Cl)s1 | 8.499 | -
COc1ccc(CNC2CCN(C(C)=O)CC2)cc1 | 8.674 | -
Cc1ncsc1C(=O)NC(C)C(C)C (centres unmarked) | 58.6 | 76.67
O=C(CNC(=O)NC1CCCC1)Nc1ccccc1 | 7.99 | -
COCCn1cncc1CNC(=O)C1(C)CCCCO1 (centres unmarked) | - | 1.135
CS(=O)(=O)NCCC(=O)N1CCc2ccccc2C1 | 17.1 | -7.526
CN(CC(=O)N(CCC#N)CC1CCC1)S(C)(=O)=O | 7.2 | -
O=C(CCn1cnnc1)Nc1cccc(F)c1 | 18 | -
CN1CCC(CN(C)C(=O)c2cccc(F)c2F)C1 (centres unmarked) | 8.893 | -
CNC(=O)N(Cc1ccco1)C1CCN(C)CC1 | -5.982 | -
Cc1cccc(OC(C)CN)c1 (centres unmarked) | 5.555 | -3.017
NCCc1noc2ccccc12 | 5.4 | 5.878
CCNc1ccc(N2CCOCC2)cc1 | - | 26.18
OC(CN1CCn2ccnc2C1)c1ccc(F)cc1 (centres unmarked) | 63.44 | -
CN(C)[C@H]1CN(C(=O)Nc2ccccc2F)C[C@@H]1O | - | 1.804
COc1cc(CN2CCCNCC2)cc2c1OCO2 | 14.7 | -
Cc1nn(C)c(Cl)c1CN(CC(N)=O)C(C)C | 37.74 | -
NCc1ccc(-n2cccn2)cc1 | 11.29 | -
CN1CCCC(NC(=O)c2ccc(=O)n(C)c2)C1 (centres unmarked) | 4.12 | -
CC(C)N1CCN(C2CCNCC2)CC1 | 1.279 | -
CN(CC(=O)N(C)C)Cc1ccc(F)cc1Cl | - | 0.3099
CN(C)c1cc(CNC(=O)c2nccnc2N)ccn1 | -9.909 | -16.22
Cc1cccc(C)c1NC(=O)Cn1cnc(C#N)n1 | -15.06 | -25.55
CCc1ccc(CN(C)CCC(=O)NC2CC2)nc1 | 6.638 | -
Cc1nn(-c2ccccc2)c(C)c1C(=O)N(C)C | -14.09 | -
C=C(C)C(C)(C)C(=O)N[C@@H]1CCOC[C@H]1OCCO | -16.45 | -
O=S(=O)(NC1CNC1)c1ccco1 | 13.71 | -
CNCc1n[nH]c(=O)n1-c1ccc(C)c(Cl)c1 | - | 3.733
NC(=O)c1cc(S(=O)(=O)NCCc2ccccc2)cs1 | 63.46 | -
CS(=O)(=O)NC1CCNC1 (centres unmarked) | - | -2.541
COc1cc(-c2nc(CN)no2)cc(OC)c1OC | 19.29 | 7.73
CN(C(=O)NC1CCCCC1)C1CC[S+]([O-])CC1 (centres unmarked) | 5.09 | -
NCCS(=O)(=O)c1cccs1 | 13.72 | -
NCc1ccc(CN2CCC(O)C2)cc1 (centres unmarked) | -5.612 | -
CCNC(=O)C(C)Nc1ccc(C)cc1C (centres unmarked) | 42.32 | -
CC(=O)c1cccc(NC(=O)c2cn(C)nc2C)c1 | 42.16 | -
CCOC(=O)CC1CCN(C(=O)C2CCNCC2)CC1 | -5.677 | -
CCCNC(=O)CC(NCCC)C(N)=O (centres unmarked) | 9.658 | -
Cc1n[nH]cc1NC(=O)C1COc2ccccc2O1 (centres unmarked) | 30.94 | -
Cc1cccc(C(=O)Nc2nnn(C)n2)c1 | 5.56 | -4.601
CCc1ccc(CN(C)C(=O)c2cccn2C)nc1 | 69.97 | 64.43
O=c1cc(N2CCCC2)cnn1CC1CCNC1 (centres unmarked) | 2.003 | -
COc1cc(C(=O)NC[C@@H](O)c2ccc(C)cc2)on1 | 66.41 | 61.93
c1coc(C2CCNCC2)n1 | - | -12.23
CN(C)CCCNC(=O)c1cc2ccccc2o1 | 14.44 | -
CCN(CCn1cccn1)C(=O)c1cc(=O)cc(C)o1 | - | -8.841
COC(CNC(=O)NCC(C)(C)O)c1cccc(Cl)c1 (centres unmarked) | - | -7.01
COC(=O)NC(C)C(=O)NCCNc1ncccc1C (centres unmarked) | 10.66 | -
Cc1cc(C(=O)N2C[C@@H](CO)[C@H](N(C)C)C2)on1 | 7.206 | -
CN1CCCC(CNC(=O)N2CCSC(C)(C)C2)C1 (centres unmarked) | 15.81 | -
O=C1CCNc2ncccc2N1 | 2.081 | -
CCC1(O)CN(S(=O)(=O)c2ncn(C)c2Cl)C1 | - | -8.273
O=C(NCCNCc1ccc(F)cc1)c1ccco1 | -4.782 | -
COCCNC(=O)C1CCN(Cc2ccccc2)CC1 | 11.68 | -
CNC1CCN(C(=O)C2(N)Cc3ccccc3C2)CC1 | 10.44 | -

Once more, the final 8:

* COC(=O)NC(C)C(=O)NCCNc1ncccc1C (centres unmarked) : Mtb glucose medium: 10.66%
* Cc1cc(C(=O)N2C[C@@H](CO)[C@H](N(C)C)C2)on1 : Mtb glucose medium: 7.206%
* CN1CCCC(CNC(=O)N2CCSC(C)(C)C2)C1 (centres unmarked) : Mtb glucose medium: 15.81%
* O=C1CCNc2ncccc2N1 : Mtb glucose medium: 2.081%
* CCC1(O)CN(S(=O)(=O)c2ncn(C)c2Cl)C1 : Mtb cholesterol medium: -8.273%
* O=C(NCCNCc1ccc(F)cc1)c1ccco1 : Mtb glucose medium: -4.782%
* COCCNC(=O)C1CCN(Cc2ccccc2)CC1 : Mtb glucose medium: 11.68%
* CNC1CCN(C(=O)C2(N)Cc3ccccc3C2)CC1 : Mtb glucose medium: 10.44%